The exact form of at least one protein or probe is not confirmed.
Target: LeuO (rLeuO) (UniProt A0A087INQ4)
Experiment: EMSA
Conditions: 0-80 nM LeuO, poly(dI-dC) 1 ug, unlabeled probe competitor 1-100 ng; 10 mM Tris-HCl pH 7.4, 10 mM KCl, 1 mM EDTA, 0.1 mM DTT, 50 ug/ml BSA, 5% glycerol, 1 ug poly(dI-dC), 10 ng probe in 20 ul, 30 min at 37 C; 6% neutral polyacrylamide gel; recombinant protein; label: 32P (vhuα-EMSAB primer); probe letters rebuilt from the primers and the genome

Question: Does “TGCCCTTGAAGAAATCCCTCAATCACATCTGCCGTGAGGTAAATCGTATTATAGGAGTATGGCAGCCCCTTATAAATAGGTGCTTTGAGGCTGAAATCCAAGAGCTTTATGTGGTTATTCGGTAACAATTTGTGAGTTATTACTCAGAAAACGGTTAAAAGTAAGGCATTGAAGCGAAAGAATGACGACAAACCTTTGCCAGACGGGGGCTTTATGCTTTAGAGTGAAATGAATTCGATAACCTATGAGAAGGGAAACCTAATGAACAAGACCCAATTAATCGACTTTATCGCAGAGAAAGCA (double strand) [vhuA upstream region]” bind?
Answer: Result: binds
